Results of unrelated studies side by side (data: NIAID ChemDB).

Common to all: tests in culture; organism: Rhinovirus

Blank or dashed fields: not listed here. Rows are shuffled and stem from different studies. A number after MIC or MFC names an inhibition level or a share of isolates. ECn: concentration that inhibits the pathogen or its effect by n%.

SMILES	read by	strain or isolate	cells	endpoint	value
CSc1nsc(-c2ccc(OCCOc3ccc([N+](=O)[O-])cc3)cc2)c1C#N	cytopathic effect	Serotype 42 (group A)	HELA-OHIO	EC50	>2 µM
CS(=O)(=O)c1ccc(Cc2ccc(Cl)c(Cl)c2)nc1	cytopathic effect	TYPE 74	HeLa	EC50	5 µg/mL
COCc1cc(CCCOc2c(Cl)cc(-c3noc(C)n3)cc2Cl)on1	cytopathic effect	Serotype 1B	HeLa	EC50	0.018 µg/mL
CS(=O)(=O)c1ccc(Cc2ccc(N)cc2)nc1	cytopathic effect	TYPE 2	HeLa	EC50	>10 µg/mL
CN(C)c1nc(C(F)(F)F)nc2c1ncn2Cc1cccc(F)c1	plaque count	Serotype 1B	M-HELA	EC50	0.03 µM
Cc1cc(OCCCc2ccc(=O)[nH]n2)cc(C)c1-c1noc(C(F)F)n1	cytopathic effect	serotypes 3 4 5 9 16 18 38 66 75 67	HeLa	EC50	0.05 µg/mL
CCN(CC)c1cc(-c2ccc(OC)cc2OC)on1	cytopathic effect	Serotype 59 (group B)	HeLa	EC50	91 µM
N#Cc1ccc2c(c1)CCC(c1ccccc1)O2	cytopathic effect	Serotype 1B	HeLa	EC50	8 µM
CS(=O)(=O)c1ccc(Oc2ccc(C(=O)c3ccccc3)cc2)nc1	cytopathic effect	TYPE 29	HeLa	EC50	>5 µg/mL
CSc1nsc(-c2ccc(OCCc3ccccc3)cc2)c1C#N	cytopathic effect	Serotype 39 (group B)	HELA-OHIO	EC50	2.5 µM
CS(=O)(=O)c1ccc(Cc2ccc(F)cc2)nc1	cytopathic effect	TYPE 64	HeLa	EC50	>10 µg/mL
CCOc1cc(CCCOc2c(C)cc(-c3noc(C)n3)cc2C)on1	cytopathic effect	Serotype 2	HeLa	EC50	0.005 µg/mL
Cc1nc(-c2cc(C)c(OCCCc3ccc(C(F)F)o3)c(C)c2)no1	cytopathic effect	serotypes 3 4 5 9 16 18 38 66 75 67	HeLa	EC80	3.087 µg/mL
Cc1cc(Cl)ccc1Cn1cnc2c(N(C)C)nc(C(F)(F)F)nc21	plaque count	Serotype 5	M-HELA	EC50	>8 µM
CCOC(=O)c1ccc(OCCC2CCN(c3ccc(C)nn3)CC2)cc1	cytopathic effect	Serotype 72 (group A)	HELA-OHIO	EC50	0.4 µM
Cc1ccc(CCCCCOc2ccc(-c3noc(C(F)F)n3)c(C)c2)nn1	cytopathic effect	serotypes 3 4 5 9 16 18 38 66 75 67	HeLa	EC80	0.63 µg/mL
CCn1c2c(c(=O)c3cc(C(C)C)ccc31)Cc1ccccc1-2	cytopathic effect	29/5582	HELA-OHIO	EC50	1.5 µg/mL
Fc1cccc(Cn2cnc3c(Nc4cccc(F)c4)nc(C(F)(F)F)nc32)c1	plaque count	Serotype 2	M-HELA	EC50	2.2 µM
CCOc1ncnc2cc(OCCC3CCN(c4ccc(C)nn4)CC3)ccc12	cytopathic effect	Serotype 14	MRC-5	EC50	0.12 µg/mL
Cc1cc(CCCOc2c(C)cc(-c3noc(C(F)(F)F)n3)cc2C)on1	cytopathic effect / visual reading	Isolate 25	OHIO HELA-I	EC50	0.22 µg/mL
Cc1cc(CCCCCOc2cc(Cl)c(-c3nnc(C)o3)c(Cl)c2)on1		Serotype 1B		MIC80	0.14 µg/mL
CCOC(=O)c1ccc(OCCOc2ccc(-c3snc(SC)c3C#N)cc2)cc1	cytopathic effect	Serotype 9 (group B)	HELA-OHIO	EC50	>2 µM
CS(=O)(=O)c1ccc(NCc2ccc(Cl)c(Cl)c2)nc1	cytopathic effect	TYPE 64	HeLa	EC50	0.3 µg/mL
Cn1c2ccccc2c2nnc(Nc3ccc(O)cc3)nc21	plaque count	HGP	WI-38	EC50	10 µg/mL
CSc1nsc(-c2ccccc2)c1C#N	cytopathic effect	Serotype 51 (group B)	HELA-OHIO	EC50	>80 µM
Cn1c2ccccc2c2nnc(NCCc3ccccn3)nc21	plaque count	1059	WI-38	EC50	220 µg/mL
CS(=O)(=O)c1ccc(NCCc2ccc(Cl)cc2)nc1	cytopathic effect	TYPE 1A	HeLa	EC50	3.1 µg/mL
Cn1c(O)c(N=NC(N)=S)c2ccccc21	plaque count	1059	WI-38	EC50	11 µg/mL
Cc1ccc(CCCOc2c(C)cc(-c3nnn(C)n3)cc2C)o1	cytopathic effect	serotypes 2 14 1A 1B 6 21 22 15 25 30 50 67 89 86 41	HeLa	EC50	0.128 µg/mL
N#Cc1ccc(C2=Cc3ccccc3OC2)cc1	cytopathic effect	Serotype 1B	HeLa	EC50	>40 µM
Cc1ccc(Cn2cnc3c(N(C)C)nc(C(F)(F)F)nc32)c(C)c1	plaque count	Serotype 8	M-HELA	EC50	>8 µM
CCCCCCS(=O)(=O)c1ccc(Oc2ccc(C(=O)c3ccccc3)cc2)nc1	cytopathic effect	TYPE 2	HeLa	EC50	>10 µg/mL
CCOC(=O)c1ccc(OCCCOc2ccc(-c3snc(SC)c3C#N)cc2)cc1	cytopathic effect	Serotype 29 (group B)	HELA-OHIO	EC50	>2 µM
CSc1nsc(-c2ccc(OCc3ccccc3)cc2)c1C#N	cytopathic effect	Serotype 45 (group A)	HELA-OHIO	EC50	>50 µM
CSCCCNc1nnc2c3ccccc3n(C)c2n1	plaque count	1059	WI-38	EC50	45 µg/mL
CCOc1cc(OC)ccc1-c1cc(N(CC)CC)no1	cytopathic effect	Serotype 63 (group B)	HeLa	EC50	>90 µM
CCCn1c2ccccc2c2nnc(NCCCO)nc21	plaque count	1059	WI-38	EC50	20 µg/mL
CCOC(=O)c1ccc(OCCC2CCN(c3ccc(C)nn3)CC2)cc1	neutral red	thompson (ICAM-1 receptor group 6	KB	EC50	0.054 µM
Cc1c(-c2ccccc2)n(-c2cccc(F)c2)c2ccc(C(C)C)cc2c1=O	cytopathic effect	16/11757	HELA-OHIO	EC50	0.03 µg/mL
CCc1nc2ccc(OCCC3CCN(c4ccc(C)nn4)CC3)cc2o1	cytopathic effect	Serotype 1A	MRC-5	EC50	0.06 µg/mL
CS(=O)(=O)c1ccc(NCc2ccc(Cl)cc2)nc1	cytopathic effect	TYPE 1A	HeLa	EC50	3.1 µg/mL
N=C(N)c1ccc2c(c1)C=C(c1ccccc1)CO2	plaque count	Serotype 1B	HeLa	EC50	9.6 µM
CCOc1cnnc2cc(OCCC3CCN(c4ccc(C)nn4)CC3)ccc12	cytopathic effect	Serotype 14	MRC-5	EC50	0.2 µg/mL
COc1ccc(CNc2ccc(S(C)(=O)=O)cn2)cc1OC	cytopathic effect	TYPE 1A	HeLa	EC50	>10 µg/mL
CSc1nsc(-c2ccc(OCc3ccccc3)cc2)c1C#N	cytopathic effect	Serotype 15 (group B)	HELA-OHIO	EC50	3 µM
CN(C)c1nc(C(F)(F)F)nc2c1ncn2Cc1ccccc1Cl	plaque count	Serotype 21	M-HELA	EC50	>8 µM
Cc1cc(CCCCCOc2c(Cl)cc(C3=NCCO3)cc2Cl)on1	plaque count	TYPE 66	HeLa	EC50	0.2 µg/mL
Cc1c(-c2ccccc2)n(-c2ccc(F)cc2)c2ccc(C(C)C)cc2c1=O	cytopathic effect	TYPE 89/41617-GALLO	HELA-OHIO	EC50	0.011 µg/mL
CCOC(=O)c1ccc(OCCC2CCN(c3ccc(C)nn3)CC2)cc1	cytopathic effect	Serotype 28	WI-38	EC50	<0.1 µg/mL
CCc1nc(-c2cc(C)c(OCCCc3cc(COC)no3)c(C)c2)no1	cytopathic effect	Serotype 15	HeLa	EC50	0.189 µg/mL
Brc1ccc2c(c1)C=C(c1ccccc1)CO2	plaque count	Serotype 1B	HeLa	EC50	5.12 µM
Cn1c2ccccc2c2nnc(NCCCCCCO)nc21	plaque count	2060	WI-38	EC50	100 µg/mL
COc1ccc(-c2cc(N3CCCC3)no2)c(O)c1	cytopathic effect	Serotype 59 (group B)	HeLa	EC50	145 µM
COc1ccc(Cn2cnc3c(N(C)C)nc(C(F)(F)F)nc32)cc1C	plaque count	TYPE 1B	M-HELA	EC50	0.2 µM
CCN(CC)c1cc(-c2ccc(OC)cc2O)on1	cytopathic effect	Serotype 14	HeLa	EC50	>381 µM
N#Cc1ccc(Cn2cnc3c(Nc4cccc(F)c4)nc(C(F)(F)F)nc32)cc1	plaque count	Serotype 1B	M-HELA	EC50	2.7 µM
C#CCOc1cc(OC)ccc1-c1cc(N(CC)CC)no1	cytopathic effect	Serotype 86 (group A)	HeLa	EC50	>40 µM
CN(C)c1nc(C(F)(F)F)nc2c1ncn2Cc1ccc(Cl)cc1	plaque count	Serotype 1B	M-HELA	EC50	0.03 µM
CCOc1nc2ccc(OCCC3CCN(c4ccc(C)nn4)CC3)cc2o1	cytopathic effect	Serotype 14	MRC-5	EC50	0.007 µg/mL
CSc1nsc(-c2ccc(OC(C)(C)C)cc2)c1C#N	cytopathic effect	Serotype 86 (group A)	HELA-OHIO	EC50	7 µM
Cc1cc(CCCCCOc2cc(Cl)c(-c3nnco3)c(Cl)c2)on1		Serotype 22		MIC80	0.45 µg/mL
CSc1nc2ccc(OCCC3CCN(c4ccc(C)nn4)CC3)cc2o1	cytopathic effect	Serotype 14	MRC-5	EC50	0.047 µg/mL

Again, the opening 4 rows:

SMILES | read by | strain or isolate | cells | endpoint | value
CSc1nsc(-c2ccc(OCCOc3ccc([N+](=O)[O-])cc3)cc2)c1C#N | cytopathic effect | Serotype 42 (group A) | HELA-OHIO | EC50 | >2 µM
CS(=O)(=O)c1ccc(Cc2ccc(Cl)c(Cl)c2)nc1 | cytopathic effect | TYPE 74 | HeLa | EC50 | 5 µg/mL
COCc1cc(CCCOc2c(Cl)cc(-c3noc(C)n3)cc2Cl)on1 | cytopathic effect | Serotype 1B | HeLa | EC50 | 0.018 µg/mL
CS(=O)(=O)c1ccc(Cc2ccc(N)cc2)nc1 | cytopathic effect | TYPE 2 | HeLa | EC50 | >10 µg/mL